One may read the IC50 as the concentration at which inhibition is half-maximal.

This assay deals with H1N1pdm09 virus (A/Netherlands/602/2009) I375F mutant. The settings on record: luciferase reporter assay; for IC50: read-out: IC50 (nM) Neth09 I375F, infection of HeLa R19 cells, I375F resistance mutant, dilution series starting from 1 µM, three biological replicates.

Consider `CC[C@H](C)[C@@H]1NC(=O)[C@H](CO)NC(=O)CNC(=O)CNC(=O)[C@H](CC(=O)O)NC(=O)[C@@H]2CCCN2C(=O)[C@H](Cc2c[nH]c3ccccc23)NC(=O)[C@H](CC(N)=O)NC(=O)[C@H](Cc2ccccc2)NC(=O)[C@H](C(C)C)NC(=O)[C@H](Cc2ccccc2)NC(=O)[C@H](CC(C)C)NC(=O)[C@@H]2CSC(=N2)c2cc(ccn2)C[C@@H](C(=O)NCC(N)=O)NC(=O)[C@H](CCCCN)NC(=O)[C@H](CC(N)=O)NC(=O)[C@H]([C@@H](C)O)NC1=O` [M5], for which the IC50 is 71.7 nM. Moreover, the “Infection inhibition in single-concentration screen, I375F mutant” value (1 µM peptide, mutant resistant against previous hits (Fig. S3)) is “most potent activity”.

For the compound `CC[C@H](C)[C@@H]1NC(=O)CNC(=O)[C@H](CC(N)=O)NC(=O)[C@@H]2CCCN2C(=O)[C@H](C(C)C)NC(=O)[C@H](Cc2ccccc2)NC(=O)[C@H](Cc2ccc(O)cc2)NC(=O)[C@@H]2CCCN2C(=O)[C@H](Cc2ccccc2)NC(=O)[C@H](Cc2ccc(O)cc2)NC(=O)[C@H](CC(C)C)NC(=O)[C@@H]2CSC(=N2)c2cc(ccn2)C[C@@H](C(=O)NCC(N)=O)NC(=O)[C@H](CCC(=O)O)NC(=O)[C@H](CC(C)C)NC(=O)[C@H]([C@@H](C)CC)NC(=O)[C@H](CC(N)=O)NC1=O` [M7], the half-maximal inhibitory concentration (IC50) came to 330 nM.

Source of the values: article PMC10548512 (Chemical Science, 2023).
